Pooled drug test results. Numbers come from NIAID ChemDB, via PubChem.

Shared fields: whole-cell or culture tests; agent: Human cytomegalovirus; read-out: EC90

Two numbers with a dash give a range or band. ECn is the concentration giving n% inhibition of infection, replication or growth. An empty or dashed field is not shown. Lines come from different laboratories, so protocols vary.

SMILES | strain | cell line | method | result
CN(C)c1ccc(/C=N/Nc2nc(-c3ccc(F)cc3)cs2)cc1 | AD169 | Human foreskin fibroblasts | cytopathic effect | >300 µM
Nc1nc2c(ncn2COC(CO)CO)c(=O)[nH]1 | TOWNE | HFF | virus yield | 2.4 µM
O=c1c(Br)cc2nnn3c2n1[C@@H]1O[C@H](C3)[C@@H](O)[C@H]1O | - | Huh7 | - | 1.9 µM
OC[C@@H]1O[C@@H](n2c(Cl)nc3cc(Cl)c(Cl)cc32)[C@H](O)[C@@H]1O | TOWNE | HFF | virus yield | 5.9 µM
Nc1nc2c(ncn2COC(CO)CO)c(=O)[nH]1 | VR3480 (ganciclovir-resistant) | - | plaque count | 75 µM
Nc1nc2c(ncn2COC(CO)CO)c(=O)[nH]1 | AD169 | HFF | plaque count | 58.1 µM
OC[C@H]1O[C@@H](n2c(Br)nc3cc(Cl)c(Cl)cc32)[C@H](O)[C@@H]1O | TOWNE | HFF | virus yield | 0.48 µM
OC[C@H]1O[C@@H](n2c(Cl)nc3cc(Cl)c(Cl)cc32)C[C@@H]1O | TOWNE | HFF | virus yield | 12 µM
COc1cc(OC)c(NC(=S)Nc2ccc(NC(=O)c3ccco3)cc2)cc1Cl | 16 isolates | - | virus yield | 0.15 µM
Nc1nc2c(ncn2COC(CO)CO)c(=O)[nH]1 | TOWNE | - | virus yield | 1.4 µM
O=c1c(Cl)cc2nnn3c2n1[C@@H]1O[C@H](C3)[C@@H](O)[C@H]1O | - | Huh7 | - | 2.1 µM
Nc1nc2c(ncn2COC(CO)CO)c(=O)[nH]1 | DAVIS | HFF | virus yield | 2.4 µM
O=C(NCc1ccc(Cl)cc1)c1c[nH]c2c(F)cccc2c1=O | Clinical isolates | - | plaque count | >40 µM
C[C@@H]1O[C@@H](n2c(Cl)nc3cc(Cl)c(Cl)cc32)[C@H](O)[C@@H]1O | AD169 | HFF | virus yield | 0.82 µM
CC(C)Nc1nc2cc(Cl)c(Cl)cc2n1[C@H]1O[C@@H](CO)[C@H](O)[C@@H]1O | 2916R (1263W94-resistant) | HFF | virus yield | 0.3 µM
COCCNc1cc(=O)n2c3c1nnn3C[C@H]1O[C@@H]2[C@H](O)[C@@H]1O | - | Huh7 | - | >100 µM
CC(C)Nc1nc2cc(Cl)c(Cl)cc2n1[C@H]1C[C@H](O)[C@@H](CO)O1 | TOWNE | HFF | virus yield | 18 µM
CN(C)c1cc(=O)n2c3c1nnn3C[C@H]1O[C@@H]2[C@H](O)[C@@H]1O | - | Huh7 | - | 86.1 µM
Nc1nc2c(ncn2COC(CO)CO)c(=O)[nH]1 | 2916R (1263W94-resistant) | HFF | virus yield | 1 µM
O=c1cc(NCCO)c2nnn3c2n1[C@@H]1O[C@H](C3)[C@@H](O)[C@H]1O | - | Huh7 | - | >100 µM
Nc1ncnc2c1ncn2C=C1CC1CO | TOWNE | KB | virus yield | 1–2 µM
O=c1cc(NC2CC2)c2nnn3c2n1[C@@H]1O[C@H](C3)[C@@H](O)[C@H]1O | - | Huh7 | - | >100 µM
Cc1cn(COC(CO)CO)c2ncnc(N)c12 | TOWNE | HFF | virus yield | >100 µM
OC[C@H]1O[C@@H](n2c(Br)nc3cc(Cl)c(Cl)cc32)[C@H](O)[C@@H]1O | - | - | virus yield | 1.4 µM
CCCNc1cc(=O)n2c3c1nnn3C[C@H]1O[C@@H]2[C@H](O)[C@@H]1O | - | Huh7 | - | >100 µM

A second listing of 3 rows from above:

{"SMILES": "OC[C@@H]1O[C@@H](n2c(Cl)nc3cc(Cl)c(Cl)cc32)[C@H](O)[C@@H]1O", "strain": "TOWNE", "cell line": "HFF", "method": "virus yield", "result": "5.9 µM"}
{"SMILES": "Nc1nc2c(ncn2COC(CO)CO)c(=O)[nH]1", "strain": "TOWNE", "method": "virus yield", "result": "1.4 µM"}
{"SMILES": "Nc1nc2c(ncn2COC(CO)CO)c(=O)[nH]1", "strain": "DAVIS", "cell line": "HFF", "method": "virus yield", "result": "2.4 µM"}